Pooled drug test results. Numbers come from NIAID ChemDB, via PubChem.

All rows: growth or infection tests

Fold resistance has wild type as its base. Two numbers with a dash give a range or band. ECn is the concentration giving n% inhibition of infection, replication or growth. Conditions beyond the fields shown may differ between rows. Blank or dashed fields: not listed here.

structure	cells	strain	read by	species	changes	measure	result
CNC(=O)c1ccc(-n2c(=O)c3c(n4ncc(Cc5ccccc5)c24)CN(C(=O)c2ccc(Br)c(C)c2)CC3)cc1	HepG2.117		luminescence	Hepatitis B virus		EC50	≤0.05 µM
COC(=O)N[C@H](C(=O)N1CCCC1c1ncc(-c2ccc(-c3ccc(-c4cnc([C@@H]5CC(C)CN5C(=O)[C@@H](NC(=O)CO)C(C)C)[nH]4)cc3)cc2)[nH]1)C(C)C	Lunet	1a	luciferase	Hepatitis C virus	L31V	EC50	0.0035 µM
COc1ccc(-n2c(C(=O)NCc3ccccc3)c3n(c2=O)CCN(c2ncnc4cc(Cl)ccc24)C3)cc1	HepG2.117		PCR	Hepatitis B virus		EC50	>5 µM
CC1(C)CC(=O)C2=C(C1)Nc1c(O)cccc1NC2c1ccc(Cl)cc1		1b	luciferase / reporter gene / replicon	Hepatitis C virus		EC50	26.3 µM
COc1ccc(CN2CCn3c(c4n(c3=O)CCN(C(=O)c3ccc(Br)c(F)c3)C4)C2=O)cc1	HepG2.2.15		PCR	Hepatitis B virus		EC50	>5 µM
CC1CCC(C(=O)N(c2cc(C#CC(C)(C)C)sc2C(=O)O)C2CCC(O)CC2)CC1	Huh7	Con1 (gt 1b)	luciferase	Hepatitis C virus	V494A	fold resistance	32.5
CC(=O)N1c2cccc(O)c2NC2=C(C(=O)CC(C)(C)C2)C1c1ccc(OCc2ccccc2Br)cc1Cl		1b	luciferase / reporter gene / replicon	Hepatitis C virus		EC50	1.49 µM
Cn1cncc1-c1ccc(-n2c(=O)c3c(n4ncc(Cc5ccccc5)c24)CN(C(=O)c2ccc(Br)c(C(F)(F)F)c2)CC3)cc1	HepG2.117		luminescence	Hepatitis B virus		EC50	≤0.05 µM
CC1(C)CC(=O)C2=C(C1)Nc1c(O)cccc1N(C(=O)c1ccc(C(N)=O)cn1)C2c1ccc(OCc2ccccc2)cc1F		1b	luciferase / reporter gene / replicon	Hepatitis C virus		EC50	5.76 µM
Cc1coc2ccc(-n3c(C(=O)NCc4ccccc4)c4n(c3=O)CCN(C(=O)c3ccc(Br)c(Cl)c3)C4)cc12	HepG2.117		PCR	Hepatitis B virus		EC50	0.1–0.5 µM
C[C@@H]1Cc2c(n3ncc(Cc4ccccc4)c3n(-c3ccc(-c4n[nH]c(C(F)(F)F)n4)cc3)c2=O)CN1C(=O)c1ccc(Br)c(C(F)(F)F)c1	HepG2.117		luminescence	Hepatitis B virus		EC50	≤0.05 µM
CC1(C)CC(=O)C2=C(C1)Nc1c(O)cccc1N(C(=O)c1ccccn1)[C@@H]2c1ccc(OCc2ccccc2)cc1F		1b	luciferase / reporter gene / replicon	Hepatitis C virus		EC50	10.07 µM
C[C@H]1Cc2c(n3ncc(Cc4ccccc4)c3n(-c3ccc4c(c3)nnn4C)c2=O)CN1C(=O)c1ccc(Br)c(C(F)(F)F)c1	HepG2.117		luminescence	Hepatitis B virus		EC50	≤0.05 µM
COc1ccc(-n2c(C(=O)Nc3ccccc3)c3n(c2=O)CCN(C(=O)c2ccc(Cl)c(Cl)c2)C3)cc1	HepG2.117		PCR	Hepatitis B virus		EC50	>5 µM
CC1(C)CC(=O)C2=C(C1)Nc1c(O)cccc1N(C(=O)CCC(=O)NS(=O)(=O)c1ccccc1)C2c1ccc(OCc2ccccc2)cc1Cl		1b	luciferase / reporter gene / replicon	Hepatitis C virus		EC50	>100 µM
CC(C)Oc1ccc(-n2c(C(=O)N[C@@H](C)c3ccccc3)c3n(c2=O)CCN(C(=O)c2ccc(Br)c(Cl)c2)C3)cc1	HepG2.117		PCR	Hepatitis B virus		EC50	0.1–0.5 µM
CC1(C)CC(=O)C2=C(C1)Nc1c(O)cccc1N(C(=O)CCC(=O)Nc1ccc(-n3cccc3)cc1)[C@@H]2c1ccc(OCc2ccccc2)cc1Cl		1b	luciferase / reporter gene / replicon	Hepatitis C virus		EC50	1.85 µM
C[C@@H](NC(=O)C1C2CN(C(=O)c3ccc(Br)c(Cl)c3)CCN2C(=O)N1c1ccc(OC2CC2)cc1)c1ccccc1	HepG2.117		PCR	Hepatitis B virus		EC50	0.1–0.5 µM
CNC(=O)c1cnc(-n2c(=O)c3c(n4ncc(Cc5ccccc5)c24)CN(C(=O)c2ccc(Br)c(C(F)(F)F)c2)[C@@H](C)C3)nc1	HepG2.117		luminescence	Hepatitis B virus		EC50	≤0.05 µM
CN(C)CCNC(=O)CCC(=O)N1c2cccc(O)c2NC2=C(C(=O)CC(C)(C)C2)C1c1ccc(OCc2ccccc2)cc1Cl		1b	luciferase / reporter gene / replicon	Hepatitis C virus		EC50	46.82 µM
CNc1nnc2cc(-n3c(=O)c4c(n5ncc(Cc6ccccc6)c35)CN(C(=O)c3ccc(Br)c(C(F)(F)F)c3)CC4)ccn12	HepG2.117		luminescence	Hepatitis B virus		EC50	≤0.05 µM
C[C@H]1Cn2c(c(C(=O)NCc3ccccc3-n3cccn3)n(-c3ccc(OC4CC4)cc3)c2=O)CN1C(=O)c1ccc(Br)c(Cl)c1	HepG2.117		PCR	Hepatitis B virus		EC50	<0.1 µM
C[C@@H]1Cc2c(n3ncc(Cc4ccccc4)c3n(-c3ccc(-c4nc(=O)on4C)cc3)c2=O)CN1C(=O)c1ccc(Br)c(C(F)(F)F)c1	HepG2.117		luminescence	Hepatitis B virus		EC50	≤0.05 µM
CC(C)Oc1ccc(-n2c(C(=O)NCc3ccc4occc4c3)c3n(c2=O)CCN(C(=O)c2ccc(Br)c(Cl)c2)C3)cc1	HepG2.117		PCR	Hepatitis B virus		EC50	>5 µM
CC1(C)CC(=O)C2=C(C1)Nc1c(O)cccc1N(C(=O)CCC(=O)N1CCOCC1)C2c1ccc(OCc2ccccc2)cc1Cl		1b	luciferase / reporter gene / replicon	Hepatitis C virus		EC50	4.08 µM

The first 2 rows once more:

structure,cells,strain,read by,species,changes,measure,result
CNC(=O)c1ccc(-n2c(=O)c3c(n4ncc(Cc5ccccc5)c24)CN(C(=O)c2ccc(Br)c(C)c2)CC3)cc1,HepG2.117,,luminescence,Hepatitis B virus,,EC50,≤0.05 µM
COC(=O)N[C@H](C(=O)N1CCCC1c1ncc(-c2ccc(-c3ccc(-c4cnc([C@@H]5CC(C)CN5C(=O)[C@@H](NC(=O)CO)C(C)C)[nH]4)cc3)cc2)[nH]1)C(C)C,Lunet,1a,luciferase,Hepatitis C virus,L31V,EC50,0.0035 µM